Pooled drug test results. Numbers come from NIAID ChemDB, via PubChem.

Shared fields: whole-cell or culture tests; agent: Mycobacterium tuberculosis

ECn: concentration that inhibits the pathogen or its effect by n%. A number after MIC or MFC names an inhibition level or a share of isolates. Inhibition is in % at the dose shown (toxicity tests: loss of growth or viability). Conditions beyond the fields shown may differ between rows. MIC bound comes from a single tested concentration. a–b is a range or a potency band. Blank or dashed fields: not listed here.

compound	strain	mutations	dose	method	endpoint	result
NC(=S)c1cc(SCc2cccc3ccccc23)ccn1	My 331/88	-	-	-	MIC	4 µM
FC(F)(F)c1cc(NCCNc2cc(C(F)(F)F)nc3c(C(F)(F)F)cccc23)c2cccc(C(F)(F)F)c2n1	H37Rv	-	-	-	MIC	>6.25 µg/mL
COc1ccc2c(c1)[n+]([O-])c(-c1ccccc1)c(N)[n+]2[O-]	KM-R	-	-	-	MIC	3.1 µg/mL
CCCCOc1ccc(NC(=O)OCCC[NH+]2CCCCC2)cc1	My 331/88	-	-	-	MIC	125 µM
c1ccc2c(CSc3nc4ccccc4[nH]3)cccc2c1	My 331/88	-	-	-	MIC	62.5 µM
C1=C(c2nc(-c3cccnc3)no2)c2ccccc2C12CCN(CC1CCCO1)CC2	912253	Isoniazid-resistant	-	resazurin	MIC	1.56 µM
CCOc1ccc2c(c1)[n+]([O-])c(S(=O)(=O)c1ccc(C)cc1)c(N)[n+]2[O-]	H37Rv	-	-	-	MIC	>12.5 µg/mL
CCN1C(=O)C(C)c2cc(C(=O)CN3CCN(c4noc5cccc(Cl)c45)CC3)ccc21	H37Rv	-	-	visual reading / absorbance	MIC	3.12 µg/mL
COc1ccc(N2CCN(Cc3ccc([N+](=O)[O-])o3)CC2)cc1	RifR	Rifampicin-resistant	-	resazurin	MIC	1.32 µM
S=C(N/N=C/c1ccccn1)SCc1ccccc1	H37Rv	-	-	BACTEC	MIC bound	≤128 µg/mL
CCOC(=O)c1ccc(NC(=O)CC(C(C)=O)C(=O)Nc2ccc(C(=O)OCC)cc2)cc1	H37Rv	-	5 µg/mL	-	inhibition	0%
O=C1Nc2ncnn2C1=O	H37Rv	-	-	BACTEC	MIC bound	>12.5 µg/mL
NNC(=O)c1ccncc1	My 331/88	-	-	-	MIC	1 µg/mL
CCOC(=O)c1ccc(NC(=O)C(CC(=O)Nc2ccc(C)cc2)C(C)=O)cc1	H37Rv	-	5 µg/mL	-	inhibition	0%
CCCCCOc1ccc(NC(=O)OCCC[NH+]2CCCCC2)cc1	My 331/88	-	-	-	MIC	16 µM
O=C(N/N=C/c1ccc(Br)cc1)c1ccc(F)cc1	H37Rv	-	-	-	MIC	>6.25 µg/mL
CC1COc2c(N3CCN(C)CC3)c(F)cc3c(=O)c(C(=O)O)cn1c23	D-211	Drug-resistant	-	resazurin	MIC	0.14 µM
CCN1C(=O)Cc2cc(C(=O)CN3CCN(c4noc5ccccc45)CC3)ccc21	H37Rv	-	-	visual reading / absorbance	MIC	3.12 µg/mL
O=C(N=Nc1c(O)[nH]c2ccccc12)c1ccc(F)cc1	H37Rv	-	-	-	EC50	>6.25 µg/mL
FC(F)(F)c1cc(NCCN2CCCCC2)c2cccc(C(F)(F)F)c2n1	H37Rv	-	-	-	MIC	<6.25 µg/mL
C[C@@H]1CN(c2c(F)c(N)c3c(=O)c(C(=O)O)cn(C4CC4)c3c2F)C[C@H](C)N1	H37Rv	-	-	-	MIC	0.2 µg/mL
CC(=O)C(CC(=O)Nc1ccccc1)C(=O)Nc1cccc2ccccc12	H37Rv	-	5 µg/mL	-	inhibition	0%
CO[C@H]1/C=C/O[C@@]2(C)Oc3c(C)c(O)c4c(O)c(c(/C=N/N5CCN(C/C=C/c6ccccc6)CC5)c(O)c4c3C2=O)NC(=O)/C(C)=C\C=C\[C@H](C)[C@H](O)[C@@H](C)[C@@H](O)[C@@H](C)[C@H](OC(C)=O)[C@@H]1C	Kurono	-	-	-	MIC	0.2 µg/mL
COc1ccc(-c2noc(C3=CC4(CCN(CC5CCCO5)CC4)c4ccccc43)n2)cc1	136570	Streptomycin-resistant	-	resazurin	MIC	0.78 µM
c1ccc2sc(SCc3ccncc3)nc2c1	My 331/88	-	-	-	MIC	125 µM
COc1cccc(NC(=O)OCCC[NH+]2CCCCC2)c1	My 331/88	-	-	-	MIC	125 µM
CC1C(=O)Nc2ccc(C(=O)CN3CCN(c4ccc([N+](=O)[O-])cc4)CC3)cc21	H37Rv	-	-	visual reading / absorbance	MIC	50 µg/mL
Nc1ccn([C@@H]2CO[C@H](CO)O2)c(=O)n1	H37Rv	-	-	BACTEC	MIC bound	>12.5 µg/mL
CN[C@@H]1[C@H](O[C@H]2[C@H](O[C@H]3[C@H](O)[C@@H](O)[C@H](N=C(N)N)[C@@H](O)[C@@H]3N=C(N)N)O[C@@H](C)[C@]2(O)C=O)O[C@@H](CO)[C@H](O)[C@H]1O	18b+	Drug-resistant	-	resazurin	MIC	0.5 µM
COc1ccc(O)c(C(=S)NCc2ccccc2)c1	My 331/88	-	-	-	MIC	2 µg/mL
CC[C@H]1OC(=O)[C@H](C)[C@@H](O[C@H]2C[C@@](C)(OC)[C@@H](O)[C@H](C)O2)[C@H](C)[C@@H](O[C@@H]2O[C@H](C)C[C@H](N(C)C)[C@H]2O)[C@](C)(OC)C[C@@H](C)C(=O)[C@H](C)[C@@H](O)[C@]1(C)O	30 isolates/HIV+	-	-	-	MIC90	8 µg/mL
C=C[C@](C)(Cl)[C@@H](Br)/C=C/[C@](C)(Cl)CBr	ATCC 35838 (rifampicin-resistant)	-	-	-	MIC	6.25 µg/mL
FC(F)(F)c1cc(NCCCCNc2cc(C(F)(F)F)nc3c(C(F)(F)F)cccc23)c2cccc(C(F)(F)F)c2n1	H37Rv	-	6.25 µg/mL	-	inhibition	14%
CNC(=O)OCC1(OC(=O)NC)OC(COC(=O)NC)(OC(=O)NC)C(OC(=O)NC)C1OC(=O)NC	H37Rv	-	-	BACTEC	MIC bound	>12.5 µg/mL
C=CC(O)C#CC#CC(O)/C=C\CCCCCCC	H37Rv	-	-	resazurin	MIC90	26.7 µg/mL
CC1C(=O)N(C)c2ccc(C(=O)CN3CCN(c4ccc([N+](=O)[O-])cc4)CC3)cc21	H37Rv	-	-	visual reading / absorbance	MIC	3.12 µg/mL
CCOC(=O)c1ccc(NC(=O)C(CC(=O)Nc2cccc(C)c2)C(C)=O)cc1	H37Rv	-	30 µg/mL	-	inhibition	0%
Cc1ccc(-c2noc(C3=CC4(CCN(CC5CCCO5)CC4)c4ccccc43)n2)cn1	12119	Ofloxacin-resistant	-	resazurin	MIC	1.56 µM
O=C(N/N=C/c1ccccc1F)c1ccc(F)cc1	H37Rv	-	6.25 µg/mL	-	inhibition	35%
CC1C(=O)N(C)c2ccc(C(=O)CN3CCN(c4noc5cccc(Cl)c45)CC3)cc21	H37Rv	-	-	visual reading / absorbance	MIC	6.25 µg/mL
COc1cc(-c2ccc3c(c2)OCO3)nc2ccccc12	H37Rv	-	-	-	MIC	16 µg/mL
O=C(N/N=C/c1ccc(Br)s1)c1ccc(F)cc1	H37Rv	-	6.25 µg/mL	-	inhibition	98%
CC(C)CCOc1ccc(NC(=S)Nc2ccc(OCCC(C)C)cc2)cc1	H37Rv	-	-	resazurin	MIC	2.5 µg/mL
NC(=S)c1cc(SCc2ccccn2)ccn1	My 331/88	-	-	-	MIC	125 µM
CCOC(=O)c1ccc(NC(=O)C(CC(=O)Nc2ccccc2)C(C)=O)cc1	H37Rv	-	30 µg/mL	-	inhibition	0%
S=C(SSC(=S)N(Cc1ccccc1)Cc1ccccc1)N(Cc1ccccc1)Cc1ccccc1	H37Rv	-	-	BACTEC	MIC	≥128 µg/mL
O=C(N/N=C/c1ccc(O)cc1)c1ccc(F)cc1	H37Rv	-	6.25 µg/mL	-	inhibition	9%
CC(=O)C(CC(=O)Nc1cccc(C)c1)C(=O)Nc1cccc2ccccc12	H37Rv	-	5 µg/mL	-	inhibition	0%
c1ccc(CSc2nc3ccccc3o2)nc1	My 331/88	-	-	-	MIC	62.5 µM
CCOc1ccc(NC(=O)OCCC[NH+]2CCCCC2)cc1	My 331/88	-	-	-	MIC	250 µM
O=C(N/N=C/c1ccccc1O)c1ccc(F)cc1	H37Rv	-	6.25 µg/mL	-	inhibition	17%
NCC[C@H](O)C(=O)N[C@@H]1C[C@H](N)[C@@H](O[C@H]2O[C@H](CN)[C@@H](O)[C@H](O)[C@H]2O)[C@H](O)[C@H]1O[C@H]1O[C@H](CO)[C@@H](O)[C@H](N)[C@H]1O	30 isolates/HIV+	-	-	-	MIC90	16 µg/mL
CO[C@H]1/C=C/O[C@@]2(C)Oc3c(C)c(O)c4c(O)c(c(/C=N/N5CCN(C)CC5)c(O)c4c3C2=O)NC(=O)/C(C)=C\C=C\[C@H](C)[C@H](O)[C@@H](C)[C@@H](O)[C@@H](C)[C@H](OC(C)=O)[C@@H]1C	SIT54	-	-	resazurin	MIC	3 µg/mL
CC[N+](CC)=c1ccc2nc3c(cc(NCc4ccccc4)c4ccccc43)oc-2c1	H37Rv	-	12.5 µg/mL	BACTEC	inhibition	99%
CCN1C(=O)C(C)c2cc(C(=O)CN3CCN(c4ccc([N+](=O)[O-])cc4)CC3)ccc21	H37Rv	-	-	visual reading / absorbance	MIC	1.56 µg/mL
CCCCCCCCOc1ccc(NC(=O)OCCC[NH+]2CCCCC2)cc1	My 331/88	-	-	-	MIC	16 µM
O=[N+]([O-])c1cc2ncccc2c2ncccc12	PZA-R	-	-	-	MIC	12.5 µg/mL
c1cncc(CSc2ncn[nH]2)c1	My 331/88	-	-	-	MIC	1000 µM
O=c1c2c(c(=O)c(=O)c1=O)Nc1ccccc1N2	H37Rv	-	-	BACTEC	MIC	6.25 µg/mL
CCCCCCCCCCCCOc1cccc(NC(=O)OCCC[NH+]2CCCCC2)c1	My 331/88	-	-	-	MIC	32 µM
CC(=O)C(CC(=O)Nc1cccc2ccccc12)C(=O)Nc1cccc2ccccc12	H37Rv	-	5 µg/mL	-	inhibition	0%
Cc1c(C#N)c2nc(N)c3ccccc3n2c1C	H37Rv	-	-	BACTEC	MIC bound	>12.5 µg/mL
Cc1ccc(CNC(=S)c2ccccc2O)cc1	My 331/88	-	-	-	MIC	0.25 µg/mL
Cc1c2oc3c(C)ccc(C(=O)OCCN4CCCCC4)c3nc-2c(C(=O)OCCN2CCCCC2)c(N)c1=O	H37Rv	-	12.5 µg/mL	BACTEC	inhibition	73%
FC(F)(F)c1cc(NCCCCCNc2cc(C(F)(F)F)nc3c(C(F)(F)F)cccc23)c2cccc(C(F)(F)F)c2n1	H37Rv	-	-	-	MIC	>6.25 µg/mL
C[CH2][Sn]1([CH2]C)[O]S(=O)(=O)[O]1	H37Rv	-	-	BACTEC	MIC	≥12.5 µg/mL
CN1C(=O)Cc2cc(C(=O)CN3CCN(c4ccc([N+](=O)[O-])cc4)CC3)ccc21	H37Rv	-	-	visual reading / absorbance	MIC	12.5 µg/mL
COC(=O)C1=C(c2cc(OC)c(OC)c(OC)c2)OC(c2cc(OC)c(OC)c(OC)c2)C1COC(C)=O	H37Rv	-	12.5 µg/mL	BACTEC	inhibition	0%
FC(F)(F)c1cc(NCCCNc2cc(C(F)(F)F)nc3c(C(F)(F)F)cccc23)c2cccc(C(F)(F)F)c2n1	H37Rv	-	-	-	MIC	>6.25 µg/mL
O=C(O)CN1C(=O)C2C3CCC(O3)C2C1=O	H37Rv	-	12.5 µg/mL	BACTEC	inhibition	15%
CCCCCCCCCCCCOc1ccc(NC(=O)OCCC[NH+]2CCCCC2)cc1	My 331/88	-	-	-	MIC	8 µM
CN1CN(C)N(C(=O)c2ccccc2)CN1C(=O)c1ccccc1	H37Rv	-	-	BACTEC	MIC bound	>12.5 µg/mL
CC(C)(C)c1ccc(CNC(=O)c2c(O)cc(Cl)cc2Cl)cc1	My 331/88	-	-	-	MIC	32 µg/mL
Cc1cc(-n2c(/C=C/c3ccc(Cl)cc3)nc3cc(Cl)ccc3c2=O)on1	H37Rv	-	6.25 µg/mL	resazurin	inhibition	-28%
C=CC(O)C#CC#CC(O)C1OC1CCCCCCC	Erdman	-	-	resazurin	MIC90	>60 µg/mL
CCCCCCc1cc(C(=O)N/N=C/c2ccc(O)c(OC)c2)c2ccccc2n1	H37Rv	-	-	BACTEC	MIC	≥12.5 µg/mL
CC(C)(C)c1ccc(CN2CCC3(CC2)C(=O)Nc2ccccc23)cc1	H37Rv	-	-	resazurin	MIC	3 µM
C/C(O)=C(\C=N\C(=S)Nc1ccccc1)C(=O)Nc1ccc(Cl)cc1	H37Rv	-	-	BACTEC	MIC bound	<6.25 µg/mL
NNC(=O)c1ccncc1	H37Rv	-	-	resazurin	MIC	0.03–0.06 µg/mL
O=C(NC(CCS(=O)(=O)NO)C(=O)OCc1ccccc1)OCc1ccccc1	H37Rv	-	-	BACTEC	MIC bound	>12.5 µg/mL
CCOC(=O)c1ccc(NC(=O)C(CC(=O)Nc2ccc(OCC)cc2)C(C)=O)cc1	H37Rv	-	5 µg/mL	-	inhibition	0%

Again, the opening 12 rows:

| compound | strain | mutations | dose | method | endpoint | result |
|---|---|---|---|---|---|---|
| NC(=S)c1cc(SCc2cccc3ccccc23)ccn1 | My 331/88 | - | - | - | MIC | 4 µM |
| FC(F)(F)c1cc(NCCNc2cc(C(F)(F)F)nc3c(C(F)(F)F)cccc23)c2cccc(C(F)(F)F)c2n1 | H37Rv | - | - | - | MIC | >6.25 µg/mL |
| COc1ccc2c(c1)[n+]([O-])c(-c1ccccc1)c(N)[n+]2[O-] | KM-R | - | - | - | MIC | 3.1 µg/mL |
| CCCCOc1ccc(NC(=O)OCCC[NH+]2CCCCC2)cc1 | My 331/88 | - | - | - | MIC | 125 µM |
| c1ccc2c(CSc3nc4ccccc4[nH]3)cccc2c1 | My 331/88 | - | - | - | MIC | 62.5 µM |
| C1=C(c2nc(-c3cccnc3)no2)c2ccccc2C12CCN(CC1CCCO1)CC2 | 912253 | Isoniazid-resistant | - | resazurin | MIC | 1.56 µM |
| CCOc1ccc2c(c1)[n+]([O-])c(S(=O)(=O)c1ccc(C)cc1)c(N)[n+]2[O-] | H37Rv | - | - | - | MIC | >12.5 µg/mL |
| CCN1C(=O)C(C)c2cc(C(=O)CN3CCN(c4noc5cccc(Cl)c45)CC3)ccc21 | H37Rv | - | - | visual reading / absorbance | MIC | 3.12 µg/mL |
| COc1ccc(N2CCN(Cc3ccc([N+](=O)[O-])o3)CC2)cc1 | RifR | Rifampicin-resistant | - | resazurin | MIC | 1.32 µM |
| S=C(N/N=C/c1ccccn1)SCc1ccccc1 | H37Rv | - | - | BACTEC | MIC bound | ≤128 µg/mL |
| CCOC(=O)c1ccc(NC(=O)CC(C(C)=O)C(=O)Nc2ccc(C(=O)OCC)cc2)cc1 | H37Rv | - | 5 µg/mL | - | inhibition | 0% |
| O=C1Nc2ncnn2C1=O | H37Rv | - | - | BACTEC | MIC bound | >12.5 µg/mL |